Source: publication PMC7384767 (Journal of natural products, 2020)
Starred links: 1 amine or outer side, 2 acyl side, 3 side chain; linkers in the order of their positions; H or OH if unused. Non-standard residues stand in square brackets, D forms with d. Residues, ends and D or L forms follow the SMILES beside them. Trp(1-CMe2(2S-oxiranyl)) = CC(C)([C@H]1CO1)n1cc(C[C@H](N)C(=O)O)c2ccccc21; Trp(1-(1,1-Me2-allyl)) = C=CC(C)(C)n1cc(C[C@H](N)C(=O)O)c2ccccc21; X3 = CC(C)([C@H](O)CCl)n1cc(C[C@H](N[*:1])C(=O)[*:2])c2ccccc21; Tyr(3-NO2) = N[C@@H](Cc1ccc(O)c([N+](=O)[O-])c1)C(=O)O; X1 = COC(OC)C(C)C[C@@H](C(=O)[*:2])N(C)[*:1]; X2 = C[C@H](CO)C[C@@H](C(=O)[*:2])N(C)[*:1]; Gly(E-crotyl) = C/C=C/C[C@H](N)C(=O)O; NMeL = CN[C@@H](CC(C)C)C(=O)O

Test system: Vero cells (ATCC CRL-81)
Format: cell-based
Conditions: Vero IC50 / M. tb H37Rv MIC

Row | Structure (SMILES) | SI (selectivity index = IC50/MIC)
1 | C/C=C/C[C@@H]1NC(=O)[C@H](CC(C)C)NC(=O)[C@H](C[C@H](C)CO)N(C)C(=O)[C@H](C)NC(=O)[C@H](Cc2ccc(O)c([N+](=O)[O-])c2)NC(=O)[C@H](CC(C)C)N(C)C(=O)[C@H](Cc2cn(C(C)(C)[C@H]3CO3)c3ccccc23)NC1=O [Compound 1, Rufomycin NBZ1] | >400
2 | C/C=C/C[C@@H]1NC(=O)[C@H](CC(C)C)NC(=O)[C@H](C[C@@H](C)CO)N(C)C(=O)[C@H](C)NC(=O)[C@H](Cc2ccc(O)c([N+](=O)[O-])c2)NC(=O)[C@H](CC(C)C)N(C)C(=O)[C@H](Cc2cn(C(C)(C)[C@H]3CO3)c3ccccc23)NC1=O [Compound 2, Rufomycin NBZ2] | >227
3 | C=CC(C)(C)n1cc(C[C@@H]2NC(=O)[C@H](C/C=C/C)NC(=O)[C@H](CC(C)C)NC(=O)[C@H](C[C@H](C)CO)N(C)C(=O)[C@H](C)NC(=O)[C@H](Cc3ccc(O)c([N+](=O)[O-])c3)NC(=O)[C@H](CC(C)C)N(C)C2=O)c2ccccc21 [Compound 3, Rufomycin NBZ3] (cyclo(A[X2]L[Gly(E-crotyl)][Trp(1-(1,1-Me2-allyl))][NMeL][Tyr(3-NO2)])) | >119
4 | C=CC(C)(C)n1cc(C[C@@H]2NC(=O)[C@H](C/C=C/C)NC(=O)[C@H](CC(C)C)NC(=O)[C@H](CC(C)C)N(C)C(=O)[C@H](C)NC(=O)[C@H](Cc3ccc(O)cc3)NC(=O)[C@H](CC(C)C)N(C)C2=O)c2ccccc21 [Compound 4, Rufomycin NBZ4] (HELM PEPTIDE1{A.[meL].L.[C/C=C/C[C@H](N[*:1])C(=O)[*:2]].[C=CC(C)(C)n1cc(C[C@H](N[*:1])C(=O)[*:2])c2ccccc21].[meL].Y}$PEPTIDE1,PEPTIDE1,1:R1-7:R2$$$V2.0) | <9
5 | C/C=C/C[C@@H]1NC(=O)[C@H](CC(C)C)NC(=O)[C@H](CC(C)C(OC)OC)N(C)C(=O)[C@H](C)NC(=O)[C@H](Cc2ccc(O)c([N+](=O)[O-])c2)NC(=O)[C@H](CC(C)C)N(C)C(=O)[C@H](Cc2cn(C(C)(C)[C@H]3CO3)c3ccccc23)NC1=O (stereo partly drawn) [Compound 5, Rufomycin NBZ5] (cyclo(A[X1]L[Gly(E-crotyl)][Trp(1-CMe2(2S-oxiranyl))][NMeL][Tyr(3-NO2)])) | >91
6 | C/C=C/C[C@@H]1NC(=O)[C@H](CC(C)C)NC(=O)[C@H](CC(C)C)N(C)C(=O)[C@H](C)NC(=O)[C@H](Cc2ccc(O)c([N+](=O)[O-])c2)NC(=O)[C@H](CC(C)C)NC(=O)[C@H](Cc2cn(C(C)(C)[C@H]3CO3)c3ccccc23)NC1=O [Compound 6, Rufomycin NBZ6] (cyclo(A[NMeL]L[Gly(E-crotyl)][Trp(1-CMe2(2S-oxiranyl))]L[Tyr(3-NO2)])) | >175
7 | C/C=C/C[C@@H]1NC(=O)[C@H](CC(C)C)N2C(=O)[C@H](C[C@@H](C)[C@H]2O)N(C)C(=O)[C@H](C)NC(=O)[C@H](Cc2ccc(O)c([N+](=O)[O-])c2)NC(=O)[C@H](CC(C)C)N(C)C(=O)[C@H](Cc2cn(C(C)(C)[C@H](O)CO)c3ccccc23)NC1=O [Compound 7, Rufomycin NBZ7] | >1000
8 | C/C=C/C[C@@H]1NC(=O)[C@H](CC(C)C)N2C(=O)[C@H](C[C@](C)(O)[C@H]2O)N(C)C(=O)[C@H](C)NC(=O)[C@H](Cc2ccc(O)c([N+](=O)[O-])c2)NC(=O)[C@H](CC(C)C)N(C)C(=O)[C@H](Cc2cn(C(C)(C)[C@H]3CO3)c3ccccc23)NC1=O [Compound 8, Rufomycin NBZ8] | >333
9 | C/C=C/C[C@@H]1NC(=O)[C@H](CC(C)C)NC(=O)[C@H](CC(C)C)N(C)C(=O)[C@H](C)NC(=O)[C@H](Cc2ccc(O)c([N+](=O)[O-])c2)NC(=O)[C@H](CC(C)C)N(C)C(=O)[C@H](Cc2cn(C(C)(C)[C@H](O)CCl)c3ccccc23)NC1=O [Compound 13] (cyclo(A[NMeL]L[Gly(E-crotyl)][X3][NMeL][Tyr(3-NO2)])) | >435
